# Legend:
# Assay type in all cases: cell-based, Dengue virus
# DENV-2 16681 strain = test: DENV-2 antiviral assay (eGFP-labeled virus in Vero cells); conditions: SI=CC50/EC50, DENV-2 antiviral assay
# Outline: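 Vero cells were pre-plated with compound overnight, then infected with eGFP-labeled DENV-2 16681 at MOI 0.5 and incubated 3 days at 37 °C. eGFP fluorescence read by automated microscopy; 9-point 4-fold dilutions (25 μM–0.00038 μM final) in quadruplicate, EC50 by linear interpolation versus virus and cell controls.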
# DENV-1 strain TC974#666 = test: Tetravalent RT-qPCR assay Protocol A, serotype 1; conditions: RT-qPCR serotype 1 TC974#666
# Protocol: (§1) The antiviral activity of the compounds of the invention was tested against DENV-1 strain TC974#666 (NCPV; Table 6), DENV-2 strain 16681 (Table 7), DENV-3 strain H87 (NCPV; Table 8) and DENV-4 strains H241 (NCPV; Table 9) in a RT-qPCR assay. Therefore, Vero cells were infected with either DENV-1, or -2, or -3, or -4 in the presence or absence of test compounds. At day 3 post-infection, the cells were lysed and cell lysates were used to prepare cDNA of both a viral target (the 3′UTR of DENV; table 2) and a cellular reference gene (β-actin, table 2). Subsequently, a duplex real time PCR was performed on a Lightcycler480 instrument. The generated Cp value is inversely proportional to the amount of RNA expression of these targets. Inhibition of DENV replication by a test compound result in a shift of Cp's for the 3′UTR gene. On the other hand, if a test compound is toxic to the cells, a similar effect on β-actin expression will be observed. The comparative ΔΔCp method is used to calculate EC50, which is based on the relative gene expression of the target gene (3′UTR) normalized with the cellular housekeeping gene (β-actin).
# (§2) The culture medium consisted of minimal essential medium supplemented with 2% of heat-inactivated fetal calf serum, 0.04% gentamycin (50 mg/mL) and 2 mM of L-glutamine. Vero cells, obtained from ECACC, were suspended in culture medium and 75 μL/well was added in 96-well plates (10000 cells/well), which already contain the antiviral compounds. Typically, these plates contain a 4-fold serial dilution of 9 dilution steps of the test compound at 200 times the final concentration in 100% DMSO (500 nL; final concentration range: 25 μM-0.00038 μM). In addition, each plate contains wells which are assigned as virus controls (containing cells and virus in the absence of compound) and cell controls (containing cells in the absence of virus and compound). Once the cells were added in the plates, the plates were incubated in a fully humidified incubator (37° C., 5% CO2) until the next day. Then, DENV-1 strain TC974#666 at an MOI of 0.6, DENV-2 strain 16681 at an MOI of 0.01, DENV-3 strain H87 at an MOI of 1.0 and DENV-4 strains H241 at an MOI of 0.2 and SG/06K2270DK1/2005 at an MOI of 0.16, were added. Therefore, 25 μL of virus suspension was added to all the wells containing test compound and to the wells assigned as virus control. In parallel, 25 μL of culture medium was added to the cell controls. Next, the plates were incubated for 3 days in a fully humidified incubator (37° C., 5% CO2). After 3 days, the supernatant was removed from the wells and the cells were washed twice with ice-cold PBS (˜100 μL). The cell pellets within the 96-well plates were stored at −80° C. for at least 1 day. Next, RNA was extracted using the Cells-to-CT™ lysis kit, according to the manufacture's guideline (Applied Biosystems). The cell lysates can be stored at −80° C. or immediately used in the reverse transcription step.
# (§3) In preparation of the reverse transcription step, mix A (table 3A) was prepared and 7.57 μL/well was dispensed in a 96-well plate. After addition of 5 μL of the cell lysates, a five minute denaturation step at 75° C. was performed (table 3B). Afterwards, 7.43 μL of mix B was added (table 3C) and the reverse transcription step was initiated (table 3D) to generate cDNA.
# (§4) Finally, a RT-qPCR mix was prepared, mix C (table 4A), dispensed in 96-well LightCycler qPCR plates to which 3 μL of cDNA was added and the qPCR was performed according to the conditions in table 4B on a LightCycler 480. Using the LightCycler software and an in-house LIMS system, dose response curves for each compound were calculated and the half maximal effective concentration (EC50) and the half maximal cytotoxic concentration (CC50) were determined.
# DENV-2 strain 16681 = test: Tetravalent RT-qPCR assay Protocol A, serotype 2; conditions: RT-qPCR serotype 2 16681
# Protocol: as §1, §2, §3, §4
# DENV-3 strain H87 = test: Tetravalent RT-qPCR assay Protocol A, serotype 3; conditions: RT-qPCR serotype 3 H87
# Protocol: as §1, §2, §3, §4
# DENV-4 strains H241 = test: Tetravalent RT-qPCR assay Protocol A, serotype 4; conditions: RT-qPCR serotype 4 H241
# Protocol: as §1, §2, §3, §4
Structure (SMILES),SI (DENV-2 16681 strain; listed as 14A*),SI (DENV-1 strain TC974#666),SI (DENV-2 strain 16681),SI (DENV-3 strain H87),SI (DENV-4 strains H241),SI (DENV-2 16681 strain; listed as 16A*),SI (DENV-2 16681 strain; listed as 18A*),SI (DENV-2 16681 strain; listed as 5B*)
"COc1cc(NC(C(=O)c2c[nH]c3cc(F)c(C)cc23)c2ccc(F)cc2OC)cc(S(C)(=O)=O)c1 (single isomer, unassigned) [Enantiomer 14A, 2-(4-fluoro-2-methoxyphenyl)-1-(6-fluoro-5-methyl-1H-indol-3-yl)-2-((3-methoxy-5-(methylsulfonyl)phenyl)amino)ethanone]",8101,1682,4710,241,27,,,
"COc1cc(NC(C(=O)c2c[nH]c3cc(OC)c(Cl)cc23)c2ccc(F)cc2OC)cc(S(C)(=O)=O)c1 (single isomer, unassigned) [Enantiomer 16A, 1-(5-chloro-6-methoxy-1H-indol-3-yl)-2-(4-fluoro-2-methoxyphenyl)-2-((3-methoxy-5-(methylsulfonyl)phenyl)amino)ethanone]",,970,19958,164,38,8049,,
"COc1cc(NC(C(=O)c2c[nH]c3ccc(OC(F)(F)F)cc23)c2ccc(F)cc2OC)cc(S(C)(=O)=O)c1 (single isomer, unassigned) [Enantiomer 18A, 2-(4-fluoro-2-methoxyphenyl)-2-((3-methoxy-5-(methylsulfonyl)phenyl)amino)-1-(5-(trifluoromethoxy)-1H-indol-3-yl)ethanone]",,7331,20747,333,130,,>28953,
"COc1cc(NC(C(=O)c2c[nH]c3cc(OC)ccc23)c2ccc(F)cc2OC)cc(S(C)(=O)=O)c1 (single isomer, unassigned) [Enantiomer 5B, 2-(4-fluoro-2-methoxyphenyl)-1-(6-methoxy-1H-indol-3-yl)-2-((3-methoxy-5-(methylsulfonyl)phenyl)amino)ethanone]",,928,5868,28,27,,,14546

# Reference: US10029984B2, “Mono- or di-substituted indole derivatives as dengue viral replication inhibitors” (Janssen Pharmaceuticals, Inc., priority 2015, dated 2018)
